# Biological target: PKNB(M.tuberculosis) (Mycobacterium tuberculosis, UniProt P9WI81)
# By UniProt entry, the sequences of proteins in these tests, tags left out.
# UniProt P9WI81, whole entry: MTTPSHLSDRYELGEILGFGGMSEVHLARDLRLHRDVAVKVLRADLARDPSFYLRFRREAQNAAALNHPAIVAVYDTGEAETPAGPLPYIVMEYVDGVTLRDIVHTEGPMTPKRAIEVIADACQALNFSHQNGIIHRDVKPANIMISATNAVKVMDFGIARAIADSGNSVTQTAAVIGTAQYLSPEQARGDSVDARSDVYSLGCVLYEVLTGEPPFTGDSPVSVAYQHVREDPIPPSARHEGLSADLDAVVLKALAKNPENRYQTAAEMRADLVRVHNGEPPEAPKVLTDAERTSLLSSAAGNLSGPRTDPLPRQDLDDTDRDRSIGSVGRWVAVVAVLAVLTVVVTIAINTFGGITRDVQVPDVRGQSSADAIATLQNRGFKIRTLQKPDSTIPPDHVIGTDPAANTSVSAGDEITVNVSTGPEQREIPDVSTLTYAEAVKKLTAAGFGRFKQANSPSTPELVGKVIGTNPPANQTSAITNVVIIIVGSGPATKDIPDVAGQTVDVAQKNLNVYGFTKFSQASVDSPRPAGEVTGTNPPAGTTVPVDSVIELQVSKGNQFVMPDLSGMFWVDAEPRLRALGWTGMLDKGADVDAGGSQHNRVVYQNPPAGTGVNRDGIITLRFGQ
# Test: DiscoverX scanMAX binding assay
# Details: 1 μM
smiles,measurement,value
CCC(C)(O)C#Cc1ccc2[nH]c3c(c2c1)-c1nc(N)ncc1CCC3 (racemic),PKNB(M.tuberculosis) % control at 1000nM,4.4 % control
